Results as given in paper PMC10492818.

Target: T1, 6XHis-CsgD STm (Salmonella enterica serovar Typhimurium SL1344) (UniProt O54294)
T1 sequence (looked up): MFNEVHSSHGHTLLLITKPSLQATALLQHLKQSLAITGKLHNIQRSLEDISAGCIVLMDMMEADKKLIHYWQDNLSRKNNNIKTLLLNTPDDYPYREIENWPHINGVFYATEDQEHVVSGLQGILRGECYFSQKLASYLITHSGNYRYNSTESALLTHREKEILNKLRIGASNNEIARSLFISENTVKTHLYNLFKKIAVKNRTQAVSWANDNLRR
Assay: EMSA
Details: shift begins at 0.5 ug, complete at 1 ug protein in 20 uL, EMSA: 50 mM NaCl, 20 mM Tris pH 7.4, 0.02% sodium azide, 40 min at 30 C, 5% native PAGE in 0.5x TAE with 2% glycerol, 0.1-8 ug protein, recombinant protein, residues 1-216, protein details: N-terminal 6xHis (pET14b), label: 5'-FAM on the curli-inter-F strand, probe letters rebuilt from the primers and the genome

**Q.** Does “CCCATGGGAAGCATAAGAACATCCCCATGGCGGCATAACACACACCAACACTTCATTTTTTAGGTGCGCGATACACTATCTTCTGTGGCCAAAAATCAATTATAAAAAATCACATGGCTATCGTTTTATTAGCACTTTGGTATGAGCTTAAATAACAAAATACCACGCGTGGGTGAGTTATTAAAAATGTTTCCACGGACATACTCTTCATCGTAACGACGCGTTAACAAAAAACGCATGTCGCTAACAAGGTAATAGATAATTTTCGCTATGTACGACCAGGTCCAGGGTGACAGCATGAAAAACAAATTGTTATTTATGATGTTGACAATACTGGGTGCG (double strand) [PcsgB]” bind?
**A.** binds

Protein sequences can lack the tags named with them.
